Compound potency records, mixed from different reports. Data source: NIAID ChemDB in PubChem.

Shared fields: whole-cell or culture tests; species: Herpes simplex virus 1; endpoint: inhibition

Rows are shuffled and stem from different studies.

CCOC(=O)CP(=O)(OC)OC[C@H]1O[C@@H](n2cc(CCCl)c(=O)[nH]c2=O)C[C@@H]1O ; dose: 6.6 µM ; strain or isolate: BRAND ; read by: cytopathic effect ; cells: VERO ; value: >25%
O=Nc1c(O)n(CCc2ccc(F)cc2)c(=O)[nH]c1=O ; dose: 100 µg/mL ; strain or isolate: Leningrad/248/88 ; read by: cytopathic effect ; cells: VERO ; value: 40%
CCOC(=O)P(=O)(OC)OC[C@H]1O[C@@H](n2cc(I)c(=O)[nH]c2=O)C[C@@H]1O ; dose: 0.6 µM ; strain or isolate: BRAND ; read by: cytopathic effect ; cells: VERO ; value: >25%
O=Nc1c(O)n(Cc2ccc(F)cc2)c(=O)[nH]c1=O ; dose: 100 µg/mL ; strain or isolate: Leningrad/248/88 ; read by: cytopathic effect ; cells: VERO ; value: 40%
O=C(O)CP(=O)(O)O ; dose: 100 µM ; strain or isolate: 90155 ; read by: plaque count ; cells: SIRC ; value: 94%
O=C(O)P(=O)(O)O ; dose: 79.4 µM ; strain or isolate: TK- ; read by: cytopathic effect ; cells: VERO ; value: >25%
Oc1cc(O)c2c(c1)O[C@H](c1ccc(O)c(O)c1)[C@H](O)C2 ; dose: 200 µM ; strain or isolate: 17 syn + ; read by: MTT ; cells: VERO ; value: 57%
O=C(O)P(=O)(O)O ; dose: 500 µM ; strain or isolate: 11-Aug ; read by: plaque count ; cells: SIRC ; value: >99.9%
O=C(O[C@@H]1[C@@H](c2c(O)cc(O)c3c2O[C@H](c2ccc(O)c(O)c2)[C@H](OC(=O)c2cc(O)c(O)c(O)c2)C3)c2c(O)cc(O)cc2O[C@@H]1c1ccc(O)c(O)c1)c1cc(O)c(O)c(O)c1 ; dose: 20 µM ; strain or isolate: 17 syn + ; read by: MTT ; cells: VERO ; value: 78%
O=C(CP(=O)(O)O)OC[C@H]1O[C@@H](n2cc(CCCl)c(=O)[nH]c2=O)C[C@@H]1O ; dose: 24.2 µM ; strain or isolate: BRAND ; read by: cytopathic effect ; cells: VERO ; value: >25%
O=Nc1c(O)n(-c2ccc(F)cc2)c(=O)[nH]c1=O ; dose: 100 µg/mL ; strain or isolate: Leningrad/248/88 ; read by: cytopathic effect ; cells: VERO ; value: 65%
O=C(O)CP(=O)(O)O ; dose: 71.4 µM ; strain or isolate: TK- ; read by: cytopathic effect ; cells: VERO ; value: >25%
O=C(O)c1cc(O)c(O)c(O)c1 ; dose: 2 µM ; strain or isolate: 17 syn + ; read by: MTT ; cells: VERO ; value: 9%
O=Nc1c(O)n(Cc2ccccc2)c(=O)[nH]c1=O ; dose: 100 µg/mL ; strain or isolate: Leningrad/248/88 ; read by: cytopathic effect ; cells: VERO ; value: 35%
COC(=O)[C@H]1[C@H](O)[C@@H](C)[C@@H](O)[C@](C)(O)/C=C(\C)C2=C3C(=C(C)C(=O)c4c(O)c(c(C)c(OC(C)=O)c43)NC(=O)/C(C)=C/C=C\[C@@H](C)C(O)[C@@H](C)[C@H]1O)OCO2 ; dose: 26 µM ; read by: plaque count ; cells: CV ; value: 76.7%

A second listing of 2 rows from above:

smiles | dose | strain or isolate | read by | cells | value
O=C(O)CP(=O)(O)O | 100 µM | 90155 | plaque count | SIRC | 94%
O=C(O)c1cc(O)c(O)c(O)c1 | 2 µM | 17 syn + | MTT | VERO | 9%

Inhibition is in % at the dose shown (toxicity tests: loss of growth or viability).